Measurements taken from paper PMC5913352.
For at least one entry, the source does not settle the construct or the ends of the probe.

Protein sequences, listed by entry. Tags and fused reporters are not part of them. Lines headed by an entry give the natural chain unless they say otherwise; changes in a name come on top.
UniProt Q8CXZ9: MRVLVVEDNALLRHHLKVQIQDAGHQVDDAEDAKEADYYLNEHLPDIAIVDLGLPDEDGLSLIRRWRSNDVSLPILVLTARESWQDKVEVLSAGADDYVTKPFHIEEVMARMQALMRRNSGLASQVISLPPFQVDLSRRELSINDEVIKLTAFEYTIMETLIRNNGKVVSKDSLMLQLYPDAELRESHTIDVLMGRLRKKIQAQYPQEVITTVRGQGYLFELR

Tests used:
[1] = biological target: PhoP (non-phosphorylated) (UniProt Q8CXZ9); experiment: EMSA; conditions: non-phosphorylated PhoP 0-2.0 uM; recombinant protein; residues 1-223; protein details: pET-28a fusion (His tag, HisTrap purified); probe letters rebuilt from the primers and the genome
[2] = biological target: PhoP-P (phosphorylated with acetylphosphate) (UniProt Q8CXZ9); experiment: EMSA; conditions: phosphorylated PhoP 0-2.0 uM, binds more strongly than non-phosphorylated (P < 0.01); recombinant protein; residues 1-223; protein details: pET-28a fusion (His tag, HisTrap purified); probe letters rebuilt from the primers and the genome

“TCAATAATAAGCAGAACATCCAATAAAAACATACGCAATAACCTGAAGGATCCTGCCATATAAAAACAAACATTGTTTTTACATTTAATCTCTCTTGATTTTGTTTAATAATTGTTTATGTAAGATAATTTATTTTTATAATGATTACATGAAAACAAAAGAGGTTGGATATGAAATTGTTATTACTTACAGGTGCAACA (double strand) [PhlyF promoter 200 bp]”: binds [1]; binds [2].
